Measured values from several laboratories, pooled; numbers as filed in NIAID ChemDB.

Common to all: toxicity to cultured cells; cell line: VERO; endpoint: CC50

CCn: concentration that lowers growth or viability of the cells by n%. An empty or dashed field is not shown. Rows are shuffled and stem from different studies.

SMILES	read by	value
Oc1ccc(Sc2cc3ccccc3[n+](CCCCCC3CCCCC3)c2)cc1	neutral red	>10 µg/mL
NC(=S)N/N=C/c1ccc2oc3ccccc3c2c1	MTT	74 µM
CCCCS(=O)(=O)Nc1ccc2[nH]c(CO)c(C)c2c1	resazurin	>170 µM
CSc1nsc(-c2cccnc2)c1C#N	-	20 µM
c1ccc(Oc2ccc(-c3nnc(-c4ccncc4)o3)cc2)cc1	MTT	95.5 µg/mL
Nc1ncnc2c1ncn2[C@@H]1C[C@@H](O)[C@@H](O)[C@H]1O	-	400 µg/mL
CCCCS(=O)(=O)Nc1ccc2[nH]c(C(=O)NC3CC(F)C3)c(C)c2c1	resazurin	>130 µM
CN(C)C(=O)CC(CSc1ccccc1)Nc1c(C(=O)N/N=C/c2ccc(OC(F)(F)F)cc2)cnc2cccc(C(F)(F)F)c12	MTT	>62.5 µg/mL
N#Cc1cccc(Sc2cc3ccccc3[n+](CCCCCC3CCCCC3)c2)c1	neutral red	>10 µg/mL
CCCCS(=O)(=O)Nc1ccc2[nH]c(C(=O)N3CCC3)c(C)c2c1	resazurin	>140 µM
FC(F)(F)c1cccc(Sc2cc3ccccc3[n+](CCCCCC3CCCCC3)c2)c1	neutral red	>10 µg/mL
CCCCCCCCCCCCCCCC(=O)NC(C)(C)C(=O)N1C[C@@H](O)C[C@H]1C(=O)N[C@@H](CC(C)C)C(=O)N[C@H](C(=O)N[C@@H](CCC(N)=O)C(=O)N[C@@H](CC(C)C)C(=O)OC)C(C)C	-	21 µM
CCn1cc(C(=O)O)c(=O)c2cc(F)c(N3CCN(CC(=O)c4ccc(Br)cc4)CC3)cc21	-	8.1 µg/mL
CSc1nsc(-c2ccc(OS(=O)(=O)c3ccc(C)cc3)cc2)c1C#N	-	25 µM
FC(F)(F)c1ccc(Sc2cc3ccccc3[n+](CCCCCC3CCCCC3)c2)cc1	neutral red	>10 µg/mL
CCCCS(=O)(=O)Nc1ccc2[nH]c(C(=O)Nc3ccc4ccccc4c3)c(C)c2c1	resazurin	>110 µM
CSc1nsc(C)c1C#N	-	100 µM
CCCCCCCCCCCCCCCCCC(=O)NC(C)(C)C(=O)N1C[C@@H](O)C[C@H]1C(=O)N[C@@H](CC(C)C)C(=O)N[C@H](C(=O)N[C@@H](CCC(N)=O)C(=O)N[C@@H](CC(C)C)C(=O)OC)C(C)C	-	25 µM
c1ccc(Oc2ccc(-c3nnc(-c4cccnc4)o3)cc2)cc1	MTT	91.4 µg/mL
CCCCS(=O)(=O)Nc1ccc2[nH]c(C(=O)OCC)c(C)c2c1	resazurin	>150 µM
CC(/C=N/NC(=S)SCc1ccccc1)=N\NC(N)=S	MTT	38.4 µM
CN(C)C(=O)CC(CSc1ccccc1)Nc1c(C(=O)N/N=C/c2ccc(F)cc2)cnc2cc(F)ccc12	MTT	>62.5 µg/mL
CCCCOc1ccc(-c2snc(SC)c2C#N)cc1	-	>50 µM
O=C(O)c1cn(C2CC2)c2cc(N3CCN(C/C(=N/O)c4ccc(F)cc4)CC3)c(F)cc2c1=O	-	>10 µg/mL
COc1ccc(/C=N/NC(=O)c2cnc3cccc(C(F)(F)F)c3c2NC(CSc2ccccc2)CC(=O)N(C)C)cc1O	MTT	>62.5 µg/mL
CCCCS(=O)(=O)Nc1ccc2[nH]c(C(=O)NCC3CCC3)c(C)c2c1	resazurin	>100 µM
N#Cc1ccc(Sc2cc3ccccc3[n+](CCCCCC3CCCCC3)c2)cc1	neutral red	>10 µg/mL
CCCCS(=O)(=O)Nc1ccc2[nH]c(C(N)=O)c(C)c2c1	resazurin	>160 µM
CN(C)C(=O)CC(CSc1ccccc1)Nc1c(C(=O)N/N=C/c2ccc(Br)s2)cnc2cccc(C(F)(F)F)c12	MTT	>62.5 µg/mL
Cc1cc(=O)c2c([nH]1)c1c(c3[nH]c(C)cc(=O)c32)Oc2ccccc2O1	MTT	163 µM
Fc1ccc(Sc2cc3ccccc3[n+](CCCCCc3ccccc3)c2)cc1	neutral red	>10 µg/mL
CN(C)C(=O)CC(CSc1ccccc1)Nc1c(C(=O)N/N=C/c2ccccc2F)cnc2cc(F)ccc12	MTT	>62.5 µg/mL
CCCCCCC[C@H]1CC2CCC3=C(C(=O)OCCCCN=C(N)N)C(CCCCC)N=C(N1)N32	-	1.1 µM
CCn1cc(C(=O)O)c(=O)c2cc(F)c(N3CCN(CC(=O)c4ccc(F)cc4)CC3)cc21	-	>10 µg/mL
CN1C(=O)C23SSC1(C)C(=O)N2c1ccccc1C3(C)C	MTT	19 µM
CCn1cc(C(=O)O)c(=O)c2cc(F)c(N3CCN(CC(=O)c4ccccc4)CC3)cc21	-	>10 µg/mL
c1ccc(Oc2ccc(-c3nnco3)cc2)cc1	MTT	99.4 µg/mL
CCCCS(=O)(=O)Nc1ccc2[nH]c(C(=O)NC3CCC3)c(C)c2c1	resazurin	140 µM
Brc1ccc(Sc2cc3ccccc3[n+](CCCCCc3ccccc3)c2)cc1	neutral red	>10 µg/mL
O=C(CN1CCN(c2cc3c(cc2F)c(=O)c(C(=O)O)cn3C2CC2)CC1)c1ccccc1	-	51.8 µg/mL
CCCCS(=O)(=O)Nc1ccc2[nH]c(C(=O)NC(C)(C)c3ccccc3)c(C)c2c1	resazurin	>110 µM
CCCCCCCCCCCCCC(=O)NC(C)(C)C(=O)N1C[C@@H](O)CC1C(=O)N[C@@H](CC(C)C)C(=O)N[C@H](C(=O)N[C@@H](CCC(N)=O)C(=O)N[C@H](CO)CC(C)C)C(C)C	-	4 µM

3 of the rows above, restated:

SMILES	read by	value
FC(F)(F)c1cccc(Sc2cc3ccccc3[n+](CCCCCC3CCCCC3)c2)c1	neutral red	>10 µg/mL
CCCCCCCCCCCCCC(=O)NC(C)(C)C(=O)N1C[C@@H](O)CC1C(=O)N[C@@H](CC(C)C)C(=O)N[C@H](C(=O)N[C@@H](CCC(N)=O)C(=O)N[C@H](CO)CC(C)C)C(C)C	-	4 µM
CN(C)C(=O)CC(CSc1ccccc1)Nc1c(C(=O)N/N=C/c2ccc(OC(F)(F)F)cc2)cnc2cccc(C(F)(F)F)c12	MTT	>62.5 µg/mL